Anti-infective test results gathered from many reports (values: NIAID ChemDB through PubChem).

Shared fields: tests in culture; organism: Mycobacterium avium complex; read-out: MIC

Neighbouring rows are from separate reports.

SMILES,strain or isolate,result
CO[C@H]1/C=C/O[C@@]2(C)Oc3c(C)c(O)c4c(O)c(c5c(c4c3C2=O)NC2(CCN(CC(C)C)CC2)N=5)=NC(=O)/C(C)=C\C=C\[C@H](C)[C@H](O)[C@@H](C)[C@@H](O)[C@@H](C)[C@H](OC(C)=O)[C@@H]1C,3350-4,0.063 µg/mL
CN(C)c1c(F)c(N2CCC(N(C)C)C2)c(F)c2c1c(=O)c(C(=O)O)cn2C1CC1,1988557,32 µg/mL
NC[C@H]1O[C@H](O[C@H]2[C@H](O)[C@@H](O[C@H]3O[C@H](CO)[C@@H](O)[C@H](N)[C@H]3O)[C@H](N)C[C@@H]2N)[C@H](N)[C@@H](O)[C@@H]1O,Isolate 93,3.13 µg/mL
NCC[C@H](O)C(=O)N[C@@H]1C[C@H](N)[C@@H](O[C@H]2O[C@H](CN)[C@@H](O)[C@H](O)[C@H]2O)[C@H](O)[C@H]1O[C@H]1O[C@H](CO)[C@@H](O)[C@H](N)[C@H]1O,1171,10 µg/mL
NC1CCN(c2c(F)cc3c(=O)c(C(=O)O)cn(C4CC4)c3c2F)C1,1988557,8 µg/mL
CO[C@H]1/C=C/O[C@@]2(C)Oc3c(C)c(O)c4c(O)c(c(/C=N/N5CCN(C)CC5)c(O)c4c3C2=O)NC(=O)/C(C)=C\C=C\[C@H](C)[C@H](O)[C@@H](C)[C@@H](O)[C@@H](C)[C@H](OC(C)=O)[C@@H]1C,13008 (serotype 20),0.4 µg/mL
S=c1[nH]c2ccccc2[nH]1,MY330/88,500 µM
NC[C@H]1O[C@H](O[C@H]2[C@H](O)[C@@H](O[C@H]3O[C@H](CO)[C@@H](O)[C@H](N)[C@H]3O)[C@H](N)C[C@@H]2N)[C@H](O)[C@@H](O)[C@@H]1O,N-316 (HIV-),2 µg/mL
CN[C@@H]1[C@H](O[C@H]2[C@H](O[C@H]3[C@H](O)[C@@H](O)[C@H](N=C(N)N)[C@@H](O)[C@@H]3N=C(N)N)O[C@@H](C)[C@]2(O)C=O)O[C@@H](CO)[C@H](O)[C@H]1O,Isolate C-35,200 µg/mL
CC1CN(c2c(F)cc3c(=O)c(C(=O)O)cn(C4CC4)c3c2F)CCN1,1988557,1 µg/mL
CO[C@H]1/C=C/O[C@@]2(C)Oc3c(C)c(O)c4c(O)c(c(/C=N/N5CCN(C/C=C/c6ccccc6)CC5)c(O)c4c3C2=O)NC(=O)/C(C)=C\C=C\[C@H](C)[C@H](O)[C@@H](C)[C@@H](O)[C@@H](C)[C@H](OC(C)=O)[C@@H]1C,SK-18,0.06 µg/mL
NCCC(O)C(N)CC(=O)NC1CNC(=O)C(C2CCN=C(N)N2)NC(=O)/C(=C/NC(N)=O)NC(=O)C(CO)NC(=O)C(CO)NC1=O,TMC 1406,6.25 µg/mL
NCC1CN(c2c(F)cc3c(=O)c(C(=O)O)cn(C4CC4)c3c2F)CC1c1ccccc1,PI12/39,8 µg/mL
NC[C@@H]1O[C@H](O[C@H]2[C@@H](O)[C@H](O[C@@H]3[C@@H](O)[C@H](N)C[C@H](N)[C@H]3O[C@H]3O[C@H](CO)[C@@H](O)[C@H](O)[C@H]3N)O[C@@H]2CO)[C@H](N)[C@@H](O)[C@@H]1O,101,<1.56 µg/mL
NCC[C@H](O)C(=O)N[C@@H]1C[C@H](N)[C@@H](O[C@H]2O[C@H](CN)[C@@H](O)[C@H](O)[C@H]2O)[C@H](O)[C@H]1O[C@H]1O[C@H](CO)[C@@H](O)[C@H](N)[C@H]1O,804/HIV+,2 µg/mL
FC(F)(F)c1ccc(CSc2nc3ccccc3[nH]2)cc1,MY330/88,>32 µM
CCn1cc(C(=O)O)c(=O)c2cc(F)c(N3CCNCC3)nc21,CIPT 14031006,5 µg/mL
NCCC[C@H](N)CC(=O)N[C@H]1CNC(=O)[C@H]([C@H]2C[C@H](O)NC(N)=N2)NC(=O)/C(=C/NC(N)=O)NC(=O)[C@H](CO)NC(=O)[C@H](CO)NC1=O,TMC 1473,12.5 µg/mL
O=[N+]([O-])c1cccc(CSc2nc3ccccc3[nH]2)c1,MY330/88,>16 µM
NCC[C@H](O)C(=O)N[C@@H]1C[C@H](N)[C@@H](O[C@H]2O[C@H](CN)[C@@H](O)[C@H](O)[C@H]2O)[C@H](O)[C@H]1O[C@H]1O[C@H](CO)[C@@H](O)[C@H](N)[C@H]1O,TMC 1403,0.78 µg/mL
CC[C@@H](CO)NCCN[C@@H](CC)CO,3217,8 µg/mL
CC(C)N=c1cc2n(-c3ccc(Cl)cc3)c3ccccc3nc-2cc1Nc1ccc(Cl)cc1,551/HIV+,0.25 µg/mL
CN[C@@H]1[C@H](O[C@H]2[C@H](O[C@H]3[C@H](O)[C@@H](O)[C@H](N=C(N)N)[C@@H](O)[C@@H]3N=C(N)N)O[C@@H](C)[C@]2(O)C=O)O[C@@H](CO)[C@H](O)[C@H]1O,Isolate 64,100 µg/mL
Clc1ccc(CSc2nc3ccccc3[nH]2)cc1Cl,MY330/88,>32 µM
CO[C@H]1/C=C/O[C@@]2(C)Oc3c(C)c(O)c4c(O)c(c(/C=N/N5CCN(C)CC5)c(O)c4c3C2=O)NC(=O)/C(C)=C\C=C\[C@H](C)[C@H](O)[C@@H](C)[C@@H](O)[C@@H](C)[C@H](OC(C)=O)[C@@H]1C,1124,8 µg/mL
CC[C@H]1OC(=O)[C@H](C)[C@@H](O[C@H]2C[C@@](C)(OC)[C@@H](O)[C@H](C)O2)[C@H](C)[C@@H](O[C@@H]2O[C@H](C)C[C@H](N(C)C)[C@H]2O)[C@](C)(OC)C[C@@H](C)C(=O)[C@H](C)[C@@H](O)[C@]1(C)O,3220,2 µg/mL
CN[C@@H]1[C@@H](O)[C@@H](O[C@@H]2[C@@H](O)[C@H](O[C@H]3O[C@H](CN)CC[C@H]3N)[C@@H](N)C[C@H]2N)OC[C@]1(C)O,Isolate 122,12.5 µg/mL
NCC[C@H](O)C(=O)N[C@@H]1C[C@H](N)[C@@H](O[C@H]2O[C@H](CN)[C@@H](O)[C@H](O)[C@H]2O)[C@H](O)[C@H]1O[C@H]1O[C@H](CO)[C@@H](O)[C@H](N)[C@H]1O,3220,32 µg/mL
CCNCC1CN(c2c(F)cc3c(=O)c(C(=O)O)cn(C4CC4)c3c2F)CC1CNCC,1760694,32 µg/mL
NNC(=O)c1ccncc1,13034 (serotype 18),1.6 µg/mL
O=C(O)c1cn(C2CC2)c2c(F)c(N3CCC(n4ccnc4)C3)c(F)cc2c1=O,1172733,16 µg/mL
CC(C)N=c1cc2n(-c3ccc(Cl)cc3)c3ccccc3nc-2cc1Nc1ccc(Cl)cc1,536/HIV+,0.25 µg/mL
CCCCCCCCCCCCCCCCSc1nc2ccccc2[nH]1,MY330/88,>500 µM
CC1COc2c(N3CCN(C)CC3)c(F)cc3c(=O)c(C(=O)O)cn1c23,CIPT 14031002,10 µg/mL
CC1CN(c2c(F)cc3c(=O)c(C(=O)O)cn(C4CC4)c3c2F)CC(C)N1,1760694,2 µg/mL
COc1cccc(CSc2nc3ccccc3[nH]2)c1,MY330/88,125 µM
O=C(O)c1cn(C2CC2)c2c(F)c(N3CC4CCCC(C3)N4)c(F)cc2c1=O,1172733,8 µg/mL
N#Cc1cccc(CSc2nc3ccccc3[nH]2)c1,MY330/88,>62 µM

Repeating the first 3 entries:

SMILES | strain or isolate | result
CO[C@H]1/C=C/O[C@@]2(C)Oc3c(C)c(O)c4c(O)c(c5c(c4c3C2=O)NC2(CCN(CC(C)C)CC2)N=5)=NC(=O)/C(C)=C\C=C\[C@H](C)[C@H](O)[C@@H](C)[C@@H](O)[C@@H](C)[C@H](OC(C)=O)[C@@H]1C | 3350-4 | 0.063 µg/mL
CN(C)c1c(F)c(N2CCC(N(C)C)C2)c(F)c2c1c(=O)c(C(=O)O)cn2C1CC1 | 1988557 | 32 µg/mL
NC[C@H]1O[C@H](O[C@H]2[C@H](O)[C@@H](O[C@H]3O[C@H](CO)[C@@H](O)[C@H](N)[C@H]3O)[C@H](N)C[C@@H]2N)[C@H](N)[C@@H](O)[C@@H]1O | Isolate 93 | 3.13 µg/mL